Compound potency records, mixed from different reports. Data source: NIAID ChemDB in PubChem.

Common to all: tests in culture; species: HIV-1; read-out: inhibition

Neighbouring rows are from separate reports.

SMILES	strain	setting	dose	read by	cell line	changes	result
Nc1nc(NC2CC2)c2ncn([C@H]3C=C[C@@H](CO)C3)c2n1	SF162 R5	-	4 µM	RT activity	PBL (activated) + PBL	-	94%
NCC(=O)N1CCC[C@H]1C(=O)NCC(=O)NCC=O	IIIB	-	25 µg/mL	p24	H9	-	67.9%
C/C=C(\C)C(=O)O[C@@H]1[C@@H](OC(=O)/C(C)=C/C)[C@]2(C)[C@@H](C(C)=O)CC[C@]2(O)[C@]2(O)CC[C@H]3C[C@@H](O[C@H]4C[C@@H](OC)[C@H](O[C@@H]5OC(C)[C@@H](O[C@@H]6OC(CO)[C@@H](O)[C@H](O)C6O)[C@H](OC)C5O)C(C)O4)CC[C@]3(C)[C@@H]12	-	pseudotyped	30 µM	luciferase	SupT1	-	39.74%
COc1cc(O)c2c(=O)oc3cc(O)cc(C)c3c2c1	NL4-3	5 d	35 µM	p24 / ELISA	PBMC	-	95%
NCC(=O)N1CCC[C@H]1C=O	IIIB	-	250 µg/mL	p24	H9	-	0%
Cc1cn([C@H]2C[C@H](N=[N+]=[N-])[C@@H](CO)O2)c(=O)[nH]c1=O	LAV-Bru	22 d	0.2 µM	RT activity	CEM	-	0%
Cc1cn([C@H]2C[C@H](N=[N+]=[N-])[C@@H](CO)O2)c(=O)[nH]c1=O	-	-	0.1 µM	p24	U1	-	30.6%
C/C=C(\C)C(=O)O[C@@H]1[C@@H](OC(=O)c2ccccc2)[C@@H]2[C@@]3(C)CC[C@H](O[C@H]4C[C@@H](OC)[C@H](O[C@@H]5OC(C)[C@@H](O[C@@H]6OC(CO)[C@@H](O)[C@H](O)C6O)[C@H](OC)C5O)C(C)O4)CC3=CC[C@@]2(O)[C@@]2(O)CC[C@H](C(C)=O)[C@@]12C	-	pseudotyped	30 µM	luciferase	SupT1	-	53.48%
CC(C)[C@H](NC(=O)c1ccc2ccccc2n1)C(=O)N[C@@H](Cc1ccccc1)[C@H](O)CN1CC[C@@H](OCc2ccncc2)C[C@H]1C(=O)NC(C)(C)C	VR949	-	0.025 µM	p24	PBMC	-	90%
Nc1ccn([C@@H]2CS[C@H](CO)O2)c(=O)n1	SF162 R5	-	5 µM	RT activity	PBL (resting) + PBL	-	98%
C/C=C(\C)C(=O)O[C@@H]1[C@@H](OC(=O)/C(C)=C/C)[C@]2(C)[C@@H](C(C)=O)CC[C@@]23O[C@]32CC=C3C[C@@H](O[C@H]4C[C@@H](OC)C(O[C@@H]5OC(C)C(O[C@@H]6OC(CO)C(O[C@@H]7OC(CO)C(O)[C@H](O)C7O)[C@H](O)C6O)[C@H](OC)C5O)C(C)O4)CC[C@]3(C)[C@@H]12	-	pseudotyped	30 µM	luciferase	SupT1	-	20.9%
CC(=O)Nc1ccc(/C=C/c2ccc(N=C=S)cc2S(=O)(=O)O)c(S(=O)(=O)O)c1	GB8	-	50 µg/mL	syncytia	JM	-	85%
C/C=C(\C)C(=O)O[C@@H]1[C@@H](OC(=O)c2ccccc2)[C@@H]2[C@@]3(C)CC[C@H](O[C@H]4C[C@@H](OC)[C@H](O[C@@H]5OC(C)[C@@H](O[C@@H]6OC(CO)[C@@H](O)[C@H](O)C6O)[C@H](OC)C5O)C(C)O4)C[C@@H]3CC[C@@]2(O)[C@@]2(O)CC[C@H](C(C)=O)[C@@]12C	-	pseudotyped	30 µM	luciferase	SupT1	-	25.57%
CC(C)Nc1cccnc1N1CCN(C(=O)c2cc3cc(N=CN(C)C)ccc3[nH]2)CC1	Seropositive clinical isolate A	-	1 µM	MTT	PBMC	-	100%
Cc1cn([C@H]2C[C@H](N=[N+]=[N-])[C@@H](CO)O2)c(=O)[nH]c1=O	LAV-1	-	0.1 µM	virus yield	CEM	-	90%
O=C(O)P(=O)(O)O	IIIB	21 d	64 µM	RT activity	PBL	-	82%
CN=C1CN=C(c2ccc[nH]2)c2cc(Cl)ccc2N1	LAV-1	-	0.1 µM	syncytia	HT4 + HT4-6C	-	26%
COc1ccc(CN[C@@H](C(=O)N[C@H]2c3ccccc3C[C@H]2O)[C@H](O)[C@H](Cc2ccccc2)NC(=O)[C@@H](NC(=O)OCc2ccccc2)C(C)(C)C)cc1	D747	-	0.15 µM	p24	Primary monocytes + Monocyte	-	90%
NC(N)=NCCC[C@H](NC(=O)[C@@H](N)Cc1ccc(O)cc1)C(=O)NCC(=O)N1CCC[C@H]1C(=O)NCC=O	ELI	-	25 µg/mL	p24	HUT	-	0%
c1cc(CN2CCCNCCNCCCNCC2)ccc1CN1CCCNCCNCCCNCC1	SW30 CLADE C R5X4	-	0.1 µM	p24	PBMC	-	3%
Oc1ccc(/C=C/c2cc(O)cc(O)c2)cc1	EJC-R1	clinical isolate	10 µM	p24	PBMC	-	55%
Cc1ccnc2c1NC(=O)c1cccnc1N2C1CC1	LAV-1	-	1 µM	syncytia	HT4 + HT4-6C	-	96%
O=c1[nH]cnc2c1ncn2[C@H]1CC[C@@H](CO)O1	BZ X4	-	9 µM	RT activity	PBL (activated) + PBL	-	51%
O=CCNC(=O)[C@@H]1CCCN1	IIIB	-	250 µg/mL	syncytia	H9	-	100%
C/C(=C(/CCOC(=O)C(C)C)SS/C(CCOC(=O)C(C)C)=C(\C)N(C=O)Cc1cnc(C)nc1N)N(C=O)Cc1cnc(C)nc1N	MN	-	50 µM	p24	H9/HIV-1(MN) + H9	-	60%
CCC[C@@]1(CCc2ccccc2)CC(O)=C([C@H](CC)c2cccc(NS(=O)(=O)c3ccc(C(F)(F)F)cn3)c2)C(=O)O1	Isolate UJ00004	-	0.8 µM	p24	PBMC	-	90%
Cc1cn([C@H]2C[C@H](N=[N+]=[N-])[C@@H](COP(=O)(O)OC[C@H]3OC(O)[C@@H](O)[C@@H](O)[C@@H]3O)O2)c(=O)[nH]c1=O	LAV-Bru	7 d	25 µM	RT activity	CEM	-	95%
O=C1N(Cc2ccc(CO)cc2)[C@H](Cc2ccccc2)[C@H](O)[C@@H](O)[C@@H](Cc2ccccc2)N1Cc1ccc(CO)cc1	Clinical isolate D2	-	0.13 µM	p24	PBMC	-	90%
COC(=O)[C@@H]1C2CCC(C[C@@H]1OC(=O)c1ccccc1)N2C	IIIB	-	50 µg/mL	p24	H9	-	<0%
O=c1[nH]cnc2c1ncn2[C@H]1CC[C@@H](CO)O1	ddI-resistant (RT K65R/L74V/M184V)	-	10 µM	p24	PBMC	RT-K65R L74V M184V	20%
NC(N)=NCCC[C@@H](C=O)NC(=O)CNC(=O)[C@@H]1CCCN1C(=O)CNC(=O)[C@@H](N)CCCN=C(N)N	ELI	-	25 µg/mL	p24	HUT	-	0%
Cc1cn([C@H]2C[C@H](N=[N+]=[N-])[C@@H](COP(=O)(O)OC[C@H]3OC(O)[C@H](O)[C@@H](O)[C@@H]3O)O2)c(=O)[nH]c1=O	LAV-Bru	15 d	5 µM	RT activity	CEM	-	98%

Percent inhibition refers to the dose given; in toxicity tests it is the harm to the cells. An empty or dashed field is not shown.